In publication PMC12777753 (Emerging Microbes & Infections, 2025) one finds IC50 data, which are given here for 1 substance.

Protein sequences, listed by entry. Tags and fused reporters are not part of them. Residues count along the entry.
UniProt Q9Q0U7, whole entry, looked up: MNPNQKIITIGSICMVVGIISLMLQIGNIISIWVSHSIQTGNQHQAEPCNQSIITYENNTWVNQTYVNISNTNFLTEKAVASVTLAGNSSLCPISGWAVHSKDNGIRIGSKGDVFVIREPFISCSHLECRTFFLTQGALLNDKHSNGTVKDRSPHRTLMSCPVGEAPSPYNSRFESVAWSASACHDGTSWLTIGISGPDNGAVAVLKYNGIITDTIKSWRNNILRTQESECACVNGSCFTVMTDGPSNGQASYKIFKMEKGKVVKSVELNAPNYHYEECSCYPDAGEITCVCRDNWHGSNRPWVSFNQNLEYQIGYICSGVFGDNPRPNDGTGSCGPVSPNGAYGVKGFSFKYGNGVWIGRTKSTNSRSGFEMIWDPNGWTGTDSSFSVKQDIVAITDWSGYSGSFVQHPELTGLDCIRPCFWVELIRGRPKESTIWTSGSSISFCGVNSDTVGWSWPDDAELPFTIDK
UniProt Q8QPK2, 82-469 limits assumed: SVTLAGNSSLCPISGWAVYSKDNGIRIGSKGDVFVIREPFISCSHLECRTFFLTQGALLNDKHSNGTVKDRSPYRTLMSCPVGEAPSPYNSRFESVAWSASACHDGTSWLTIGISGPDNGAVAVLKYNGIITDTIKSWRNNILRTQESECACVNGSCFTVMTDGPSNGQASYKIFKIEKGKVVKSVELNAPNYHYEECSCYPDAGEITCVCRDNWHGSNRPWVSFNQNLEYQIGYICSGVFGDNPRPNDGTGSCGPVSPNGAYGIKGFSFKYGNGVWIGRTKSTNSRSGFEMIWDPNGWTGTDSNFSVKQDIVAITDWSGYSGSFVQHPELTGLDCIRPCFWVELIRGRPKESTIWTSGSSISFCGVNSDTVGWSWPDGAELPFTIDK

In assay [1] the target is NA of Genotype D1.1 viruses (n = 7) (Influenza A virus, UniProt Q9Q0U7). The following applies: read-out: NA inhibitor IC50, median.
In assay [2] the target is NA of A/California/155/2024 (Influenza A virus, UniProt Q9Q0U7). Format: biochemical, influenza A(H5N1) virus. The note with it: read-out: NA inhibitor IC50 ± SD.
The target of assay [3] is NA of A/California/152/2024 (Influenza A virus, UniProt Q9Q0U7). Format: biochemical, influenza A(H5N1) virus. The note with it: read-out: NA inhibitor IC50 ± SD.
Assay [4] deals with recNA A/Washington/239/2024 (genotype D1.1) WT (Influenza A virus, UniProt Q8QPK2). Format: biochemical, influenza A(H5N1) virus.
The target of assay [5] is NA of A/California/147/2024 (Influenza A virus, UniProt Q9Q0U7). The assay is classed as biochemical, influenza A(H5N1) virus. The following applies: read-out: NA inhibitor IC50 ± SD.
Assay [6] has as its target NA of A/California/173/2024 (Influenza A virus, UniProt Q9Q0U7). The assay is classed as biochemical, influenza A(H5N1) virus. The note with it: read-out: NA inhibitor IC50 ± SD.
Assay [7] addresses NA of A/bald eagle/FL/2022 (H5N1) (Influenza A virus, UniProt Q9Q0U7). Format: biochemical. The following applies: read-out: NA inhibitor IC50 ± SD.
The target in assay [8] is NA of A/California/151/2024 (Influenza A virus, UniProt Q9Q0U7). Format: biochemical, influenza A(H5N1) virus. The note with it: read-out: NA inhibitor IC50 ± SD.
The target of another assay is NA of A/Nevada/10/2025 (Influenza A virus, UniProt Q9Q0U7). The assay is classed as biochemical, influenza A(H5N1) virus. The following applies: read-out: NA inhibitor IC50 ± SD.
In assay [9] the target is NA of Genotype B3.13 viruses (n = 10) (Influenza A virus, UniProt Q9Q0U7). The following applies: read-out: NA inhibitor IC50, median.
The target of assay [10] is recNA A/California/148/2024 (genotype B3.13) WT (Influenza A virus, UniProt Q9Q0U7). The assay is classed as biochemical, influenza A(H5N1) virus.
For assay [11], the target named is NA of A/California/148/2024 (Influenza A virus, UniProt Q9Q0U7). Format: biochemical, influenza A(H5N1) virus. The note with it: read-out: NA inhibitor IC50 ± SD.
A further assay deals with NA of A/Iowa/24/2024 (Influenza A virus, UniProt Q9Q0U7). Format: biochemical, influenza A(H5N1) virus. The note with it: read-out: NA inhibitor IC50 ± SD.
Assay [12] has as its target NA of A/California/153/2024 (Influenza A virus, UniProt Q9Q0U7). Format: biochemical, influenza A(H5N1) virus. The note with it: read-out: NA inhibitor IC50 ± SD.
Another assay addresses NA of A/Wyoming/01/2025 (Influenza A virus, UniProt Q9Q0U7). The assay is classed as biochemical, influenza A(H5N1) virus. The note with it: read-out: NA inhibitor IC50 ± SD.

Broadly, the IC50 is the point on the concentration scale where inhibition reaches its midpoint.

With oseltamivir carboxylate, the IC50 in [1] was 2.87 nM; in assay [2] it was 2.71 nM; in assay [3], 3.45 nM; in [4] it was 3.52 nM; in assay [5], 3.62 nM; in assay [6], 3.26 nM. Further, the IC50 in [7] came out at 3.09 ± 0.62 nM; in assay [8], 3.54 nM; on NA of A/Nevada/10/2025 it was 2.45 nM; in [9], 3.5 nM; in [10] it was 3.99 nM; in [11] it was 3.31 nM. Also, the IC50 on NA of A/Iowa/24/2024 amounted to 2.45 nM; in [12], 3.56 nM; at NA of A/Wyoming/01/2025, 2.94 nM.
